The data set has as its system His9-PigP. In words: EMSA. The conditions noted are these: 5 mM MgCl2, competed by unlabeled pigA promoter; recombinant protein; residues 1-204; label: 5'-biotin; probe letters rebuilt from the primers and the genome. Background: A gel shift assay detects complexes by their altered migration in electrophoresis.

The exact form of at least one protein or probe is not confirmed.

Consider “CGGAATTCAGTATCGAGCGCATTCATGCCCAATCCGCCGAACGCGGTCGTCACGGGGGCTCGGGTAAAACCATAGGCGGCGGCTTGTTGCCACAAATCCAGGCTTAATACCTGCCGTGAAAGCCGAGCATGCGCATCCTGATCCAGCACCTCGCGGGCAAAACGCTGAGCGGATTCGCTTAGAGCCTGCTGCTCACTTGATAAGTTAAAATCCATGACGAACTCCGCCATTGGGTTGAGAGATTAAATTAGCTAATATTTCTAGTTTGGAGGTGGCCAAAACTCAAACAGGCAAAGTAATGGTAAATGTAAGTAAATGTTTATTTATGTGGTCTATTATTACAATTTTGTTAATTGATGTTTTTATTTTGTTGTTTTTGTTGTGTTTTATTTTGTGTTATTTATACACAAAAATTTACATATAATAAAAATCTTAATTTGATCAAATTTTAATAGGTTAGATTGTCTATTGTTTTTTGATGAATACTTTGCAGGTGAAGTATCTATCTTTTGGATGTGGCTATCGGTTTCTCATCGATATCGACGGTAGGGCGTTGAGGCTTGGTGAGTGGCGGAAAGCGGCTTAAGATAGGAGATGAGCAGGAGCATTCCGGAGGAAAAAATGAATATTAGCGACGTCG (double strand) [pigA promoter]”, for which the binding result is listed as “binds”.

The values are drawn from PMC3585978.
